Reference: PubChem BioAssay AID1259414 (Drosophila RNAi Screening Center, 2018)

- Test: 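Fly genes that alter Wolbachia amount inside host cells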 (primary screen)
- Cells: Drosophila JW18 cells infected with Wolbachia
- Knock-down reagent: long dsRNA against Drosophila genes, 0.25 µg dsRNA per well of a 384-well plate
- Timing: 5 days
- Challenge: cells persistently infected with Wolbachia before knock-down; no added drug
- Detection: 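Automated imaging of bacterial rRNA staining divided by host cell count, reported as plate-normalised robust z-score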
- Scale: Wolbachia per cell robust z: higher = more Wolbachia per host cell than the plate typical
- Rule for the call: 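Active if absolute robust z reaches 1.5 in two or more of three replicates, leaving out multi- or no-target dsRNAs, genes unexpressed in JW18 and A1 wells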
In all, the deposit lists about 24,000 reagents; shown is a random part of those with a known target gene and a result. In the full data, about 1,210 (5%) were called active. 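Inactive calls also include excluded dsRNAs with several or no targets, genes unexpressed in JW18, and well A1, regardless of score.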

no.	target	DRSC id	Wolbachia per cell robust z, rep 1	Wolbachia per cell robust z, rep 2	Wolbachia per cell robust z, rep 3	outcome
1	Sfp33A1 (GeneID 8674085)	DRSC40638	0.108	-1.45	1.62	inactive
2	CG15435 (GeneID 33655)	DRSC00450	-5.54	0.871	0.987	inactive
3	CG15435 (GeneID 33655)	DRSC27701	-0.318	1.1	0.823	inactive
4	hook (GeneID 35169)	DRSC03545	1	-0.896	-1.01	inactive
5	Rab23 (GeneID 40701)	DRSC12305	-3.05	-0.233	-1.88	active
6	Rab23 (GeneID 40701)	DRSC25339	0.73	-0.677	1.1	inactive
7	CG5023 (GeneID 42400)	DRSC15697	-1	0.0253	-1.66	inactive
8	Ppcs (GeneID 42295)	DRSC14127	-3.13	-2.01	-7.94	active
9	CG33342 (GeneID 2768684)	DRSC13662	1.13	0.147	0.915	inactive
10	Cpr11A (GeneID 32198)	DRSC19861	-2.08	0.731	-0.0602	inactive
11	Cpr11A (GeneID 32198)	DRSC26786	0.189	-1.32	0.342	inactive
12	Frl (GeneID 39561)	DRSC09300	1.73	-0.624	0.799	inactive
13	Frl (GeneID 39561)	DRSC10027	1.45	2.48	1.82	inactive
14	Frl (GeneID 39561)	DRSC10716	1.11	1.85	1.18	inactive
15	Frl (GeneID 39561)	DRSC28783	1.11	1.2	1.11	inactive
16	wisp (GeneID 32152)	DRSC23092	0.505	-0.0713	0.464	inactive
17	wisp (GeneID 32152)	DRSC25917	0.436	-0.246	-1.14	inactive

The list goes on, starting with the last 3 of the part before.
no.	target	DRSC id	Wolbachia per cell robust z, rep 1	Wolbachia per cell robust z, rep 2	Wolbachia per cell robust z, rep 3	outcome
15	Frl (GeneID 39561)	DRSC28783	1.11	1.2	1.11	inactive
16	wisp (GeneID 32152)	DRSC23092	0.505	-0.0713	0.464	inactive
17	wisp (GeneID 32152)	DRSC25917	0.436	-0.246	-1.14	inactive
18	lola (GeneID 44548)	DRSC05220	-9.16	-0.603	1.74	inactive
19	lola (GeneID 44548)	DRSC05221	1.17	0.552	0.343	inactive
20	lola (GeneID 44548)	DRSC05222	1.28	-0.444	0.344	inactive
21	lola (GeneID 44548)	DRSC05223	0.123	0.152	2.13	inactive
22	lola (GeneID 44548)	DRSC05224	0.695	0.328	0.558	inactive
23	lola (GeneID 44548)	DRSC06738	0.54	-0.0553	-0.291	inactive
24	lola (GeneID 44548)	DRSC06740	0.487	-0.46	-0.674	inactive
25	lola (GeneID 44548)	DRSC06741	0.564	0.406	-1.26	inactive
26	lola (GeneID 44548)	DRSC07646	-0.283	-0.515	-1.39	inactive
27	lola (GeneID 44548)	DRSC07647	0.72	-0.112	0.284	inactive
28	lola (GeneID 44548)	DRSC27862	1.18	2.17	1.87	inactive
